A mixed list of measured activities; the numbers were collected in NIAID ChemDB.

Shared fields: growth or infection tests; species: Herpes simplex virus 1

ECn is the concentration giving n% inhibition of infection, replication or growth.

smiles,endpoint,read by,strain,cells,result
C#C[C@H](O)C1=C[C@@H](n2cnc3c(N)ncnc32)[C@H](O)[C@@H]1O,EC50,cytopathic effect,KOS,E6SM,>100 µg/mL
CC(=O)OC[C@H]1O[C@@H](c2ccccc2)C[C@@H]1OC(C)=O,EC50,cytopathic effect,KOS,E6SM,>400 µg/mL
COC(=O)[C@H](C)NP(=O)(OC[C@H]1C/C1=C/n1cnc2c(OC)nc(N)nc21)Oc1ccccc1,EC50,ELISA,,BSC-1,2 µM
O=c1[nH]c(=O)n([C@H]2C[C@H](O)[C@@H](COP(=O)(O)O)O2)cc1I,EC50,cytopathic effect,F,PRK,0.07 µg/mL
Nc1nc2c(ncn2C[C@]2(CO)C[C@H]2CO)c(=O)[nH]1,EC50,cytopathic effect,G,VERO,1.5 µg/mL
O=c1[nH]cnc2c1ncn2CC=C(CO)CO,EC50,cytopathic effect,,CCL18,>100 µg/mL
Cc1cn(CCCC(O)CF)c(=O)[nH]c1=O,EC50,cytopathic effect,B2006 (TK-),ESM,>400 µg/mL
CN1CCN(n2cc(C(=O)NCc3ccc(Cl)cc3)c(=O)c3cc(CN4CCOCC4)ccc32)CC1,EC50,plaque count,KOS,HFF,0.6 µM
CCc1cn([C@@H]2OC3COP(=O)(O)OC3[C@H]2O)c(=O)nc1N,EC50,,McIntyre,,>400 µg/mL
CCCCCCCCCCCCCCCCCCOCCCOP1(=O)CO[C@@H](Cn2ccc(N)nc2=O)CO1,EC50,plaque count,F,HFF,>1 µM
NC(N)=NCCC[C@H](NC(=O)[C@H](Cc1c[nH]c2ccccc12)NC(=O)[C@H](Cc1c[nH]c2ccccc12)NC(=O)[C@H](CCCN=C(N)N)NC(=O)[C@H](Cc1c[nH]c2ccccc12)NC(=O)[C@H](Cc1c[nH]c2ccccc12)NC(=O)[C@@H](N)CCCN=C(N)N)C(=O)O,EC50,plaque count,,VERO,>20 µM
[N-]=[N+]=NC(CBr)c1cn(CCC(CO)CO)c(=O)[nH]c1=O,EC50,cytopathic effect,E-377 (TK+),HFF,>270 µM
COc1ncnc2c1ncn2[C@@H]1C[C@H](CO)[C@@H](O)[C@H]1O,EC50,cytopathic effect,HF,VERO,7 µg/mL
Cc1cn(C(CF)CCCO)c(=O)[nH]c1=O,EC50,cytopathic effect,KOS,ESM,>400 µg/mL
Cn1cc(C(=O)NCc2ccc(Cl)cc2)c(=O)c2cc(CN3CCOCC3)ccc21,EC90,plaque count,KOS,VERO,8.5 µM
CCCCCCCCCCCCCCCCOP1(=O)CO[C@@H](Cn2ccc(N)nc2=O)CO1,EC50,plaque count,F,HFF,>1 µM
COC(=O)[C@H](C)NP(=O)(OC[C@H]1C/C1=C/n1cnc2c(N)nc(N)nc21)Oc1ccccc1,EC50,plaque count,,VERO,30 µM
NC(=S)c1cn(COCCO)c2ncnc(N)c12,EC50,plaque count,E-377,HFF,21 µM
Cc1cn([C@H]2C[C@@H](N=[N+]=[N-])[C@@H](CO)O2)c(=O)[nH]c1=O,EC50,plaque count,KOS,,>100 µM
CC[C@@H](O)C1=C[C@@H](n2cnc3c(N)ncnc32)[C@H](O)[C@@H]1O,EC50,cytopathic effect,KOS,E6SM,>400 µg/mL
C/C(=C\Cn1cnc2c(=O)[nH]cnc21)CO,EC50,cytopathic effect,,CCL18,>100 µg/mL
CC(=O)Nc1nc2c(CC(O)CO)ncn2c(=O)[nH]1,EC50,cytopathic effect,KOS,PRK,>200 µg/mL
CCCCCCCC/C=C\CCCCCCCOCCCOP(=O)(O)CO[C@H](CO)Cn1ccc(N)nc1=O,EC50,plaque count,F,HFF,0.05 µM
O=C(CCC1CCCCC1)N(O)c1ccc(Cl)cc1,EC50,cytopathic effect,KOS,E6SM,>16 µg/mL
Cn1cc(C(=O)NCc2ccc(Cl)cc2)c(=O)c2cc(CN3CCOCC3)ccc21,EC50,plaque count,SC16,HFF,2.5 µM
Nc1nc2c(ncn2COC(CO)CO)c(=O)[nH]1,EC50,cytopathic effect,,VERO,0.55 µg/mL
Nc1nc(N)c2c(nnn2[C@@H]2O[C@H](CO)[C@@H](O)[C@H]2O)n1,EC50,cytopathic effect,HF,VERO,100 µg/mL
Cc1c(NC(=O)OC(C)(C)C)ccc2nc(N(CCCc3ccccc3)C(=O)NCc3cccnc3)oc(=O)c12,EC90,plaque count,,VERO,>25 µM
CCCCNc1cn([C@@H]2C[C@H](CO)[C@@H](O)C2)c(=O)[nH]c1=O,EC50,cytopathic effect,377,VERO,290 µg/mL
CC(=O)Nc1nc2c(CC(O)CO)nc(C)n2c(=O)[nH]1,EC50,cytopathic effect,KOS,PRK,>400 µg/mL
Nc1ccn(C[C@@H](CO)OCP(=O)(O)O)c(=O)n1,EC50,plaque count,F,HFF,5.7 µM
C=CCc1ncn2c(=O)[nH]c(NC(C)=O)nc12,EC50,cytopathic effect,KOS,PRK,>200 µg/mL
COC1=C2C[C@@H](C)C[C@@H](OC)[C@@H](O)[C@H](C)/C=C(\C)[C@@H](OC(N)=O)[C@H](OC)/C=C\C=C(/C)C(=O)NC(=CC1=O)C2=O,EC50,,SM44,VERO,0.093 µM
CCOC(=O)c1ccc(OCCCCc2cc(C=O)n(C)c2)cc1,EC50,plaque count,,VERO,>55 µM
CCc1cn([C@@H]2O[C@H](COP(=O)(O)O)[C@@H](O)[C@H]2O)c(=O)nc1N,EC50,,McIntyre,,>400 µg/mL
Nc1ncnc2c1ncn2C/C=C(/CO)c1ccccc1,EC50,cytopathic effect,,CCL18,>100 µg/mL
COc1cc2oc(-c3ccccc3)cc(=O)c2c(OC)c1OC,EC50,plaque count,KOS,VERO,5.8 µg/mL
Nc1ncnc2c1ncn2CC=C(CO)CO,EC50,cytopathic effect,,CCL18,>100 µg/mL
Nc1ncc2c(ncn2COC(CO)CO)n1,EC50,cytopathic effect,K1,VERO,0.6 µM
CCCCCOc1nc(N)nc2c1ncn2/C=C1/C[C@@H]1CO,EC50,cytopathic effect,,HFF,>330 µM
C/C=C/c1cn([C@H]2C[C@H](O)[C@@H](CO)O2)c(=O)[nH]c1=O,EC50,plaque count,KOS,HELA BU,<10 µM
Nc1ncnc2c1ncn2[C@@H]1C[C@H](CO)[C@@H](O)[C@@H]1O,EC50,cytopathic effect,HF,VERO,5.9 µg/mL
CO[C@H]1[C@H]2O[Si](C(C)C)(C(C)C)O[Si](C(C)C)(C(C)C)OC[C@@H]2O[C@@H]1c1ccccc1,EC50,cytopathic effect,KOS,E6SM,>16 µg/mL
OCC(=CCn1cnc2c(Cl)ncnc21)CO,EC50,cytopathic effect,,CCL18,79.5 µg/mL
CN(C)CCN1C(=O)c2cccc3cc(N)cc(c23)C1=O,EC50,plaque count,HFEM,VERO,<4 µg/mL
O=C(NCc1ccc(Cl)cc1)c1cn2c3c(cc(CN4CCOCC4)cc3c1=O)OC(c1cccnc1)C2,EC50,plaque count,13231,HFF,10.8 µM
Cc1c(NC(=O)C(C)C)ccc2nc(NC(C)(C)C(=O)N(C)CCc3ccccn3)oc(=O)c12,EC90,plaque count,,VERO,12.5 µM
Nc1nc2c(ncn2C[C@]2(CO)C[C@H]2CO)c(=O)[nH]1,EC50,plaque count,Tomioka,BALB/3T3,0.0012 µg/mL
Nc1nc2c(ncn2[C@H]2CC[C@H](O)[C@H]2CO)c(=O)[nH]1,EC50,cytopathic effect,377,PRK,<0.3 µg/mL
Cc1c(NC(=O)OC(C)(C)C)ccc2nc(N3CCCC3(OCc3ccccc3)C(=O)N(C)CCc3cccnc3)oc(=O)c12,EC90,plaque count,,VERO,6.1 µM
Cc1cn([C@@H]2OC3COP(=O)(O)OC3[C@H]2O)c(=O)nc1N,EC50,,KOS,,>400 µg/mL
Nc1ccn(CSC(CO)CO)c(=O)n1,EC50,plaque count,ICI,VERO,>50 µM
CC(=O)OC[C@H]1O[C@H](O[C@H]2O[C@@H](COC(=O)/C=C/c3ccccc3)[C@H](O)C2(COC(C)=O)OC(=O)/C=C/c2ccccc2)[C@H](OC(C)=O)[C@@H](O)[C@@H]1OC(C)=O,EC50,plaque count,7401H,VERO,>100 µg/mL
O=c1[nH]c(=O)n([C@@H]2C[C@H](CO)[C@@H](O)C2)cc1Br,EC50,cytopathic effect,377,VERO,0.3 µg/mL
CCN(C(=O)C1(Nc2nc3ccc(NC(=O)OC(C)(C)C)c(C)c3c(=O)o2)CCCC1)c1cccnc1,EC90,plaque count,,VERO,>12.5 µM
CCCc1cn([C@H]2C[C@H](O)[C@@H](CO)O2)c(=O)[nH]c1=O,EC50,plaque count,KOS,HELA BU,<10 µM
Nc1nc2c(ncn2COC(CO)CO)c(=O)[nH]1,EC50,,,,1 µM
CCCc1cn([C@@H]2O[C@H](COP(=O)(O)O)[C@@H](O)[C@H]2O)c(=O)nc1N,EC50,,F,,>400 µg/mL
C/C(=C\Cn1cnc2c(=O)[nH]c(N)nc21)CO,EC50,cytopathic effect,,CCL18,32.7 µg/mL
Cc1c(NC(=O)OC(C)(C)C)ccc2nc(N3CCC[C@H]3C(=O)N(C)CCc3ccccn3)oc(=O)c12,EC90,plaque count,,VERO,>12.5 µM
C=CCNc1nc(N)nc2c1ncn2/C=C1/C[C@@H]1CO,EC50,cytopathic effect,,HFF,227 µM
Nc1ccn([C@@H]2O[C@H](CO)[C@@H](O)[C@@H]2O)c(=O)n1,MIC,,FRAN,,4.4 µg/mL
Nc1nc(NC2CC2)c2ncn(C=C3CC3CO)c2n1,EC50,ELISA,,BSC-1,15 µM
CCCCCSc1nc(N)nc2c1ncn2/C=C1/C[C@@H]1CO,EC50,cytopathic effect,,HFF,49.5 µM
O=C(CC1CCCCC1)N(O)c1ccccc1,EC50,cytopathic effect,KOS ACV-resistant TK-,E6SM,>80 µg/mL
O=c1[nH]c(=O)n([C@H]2C[C@H](O)[C@@H](CO)O2)cc1I,EC50,cytopathic effect,F,PRK,0.1 µg/mL
O=C(NC1CC1)c1cc2c(s1)-c1ccccc1N(C(=O)c1ccc(NC(=O)c3ccccc3-c3ccccc3)cc1)CC2,EC50,plaque count,KOS,HeLa,>100 µM
CS/C=C/C(=O)NCCCCNC(=O)Cc1ccccc1,EC50,plaque count,,,<20 µg/mL
Cc1c(NC(=O)OC(C)(C)C)ccc2nc(N3CCC[C@H]3C(=O)NCc3ccccn3)oc(=O)c12,EC90,plaque count,,VERO,>12.5 µM
Nc1nc2c(ncn2COCCO)c(=O)[nH]1,EC50,cytopathic effect,K1,VERO,0.41 µM
O=c1[nH]c(=O)n(C2CC(O)C(CO)O2)cc1-c1ccc(Cl)s1,EC50,,KOS,,0.02 µM
O=c1[nH]c(=O)n([C@H]2C[C@H](O)[C@@H](COP(=O)([O-])OP(=O)([O-])OC[C@@H]3OC(O)[C@H](O)[C@H](O)[C@H]3O)O2)cc1I,EC50,cytopathic effect,B2006 (TK-),E6SM,200 µg/mL
Nc1nc2c(ncn2COCCO)c(=O)[nH]1,EC50,plaque count,KOS,VERO,3.9 µM
Nc1nc(NC2CC2)c2ncn(/C=C3/C[C@@H]3CO)c2n1,EC50,cytopathic effect,,HFF,63.5 µM
CCCCCCCC/C=C\CCCCCCCCOCCOP(=O)(O)CO[C@H](CO)Cn1ccc(N)nc1=O,EC50,plaque count,F,HFF,0.03 µM
CCCOc1nc(N)nc2c1ncn2/C=C1/C[C@@H]1CO,EC50,cytopathic effect,,HFF,42.5 µM
Nc1nc2c(ncn2CCCC(O)CF)c(=O)[nH]1,EC50,cytopathic effect,B2006 (TK-),ESM,>400 µg/mL
Nc1nc(OCC2CC2)c2ncn(/C=C3/C[C@@H]3CO)c2n1,EC50,cytopathic effect,,HFF,6.3 µM
COc1nc(N)nc2c1ncn2/C=C1/C[C@H]1CO,EC50,plaque count,,VERO,>50 µM

For reference, 11 entries again:

smiles | endpoint | read by | strain | cells | result
CCCCNc1cn([C@@H]2C[C@H](CO)[C@@H](O)C2)c(=O)[nH]c1=O | EC50 | cytopathic effect | 377 | VERO | 290 µg/mL
Nc1ccn([C@@H]2O[C@H](CO)[C@@H](O)[C@@H]2O)c(=O)n1 | MIC |  | FRAN |  | 4.4 µg/mL
O=c1[nH]c(=O)n([C@H]2C[C@H](O)[C@@H](COP(=O)([O-])OP(=O)([O-])OC[C@@H]3OC(O)[C@H](O)[C@H](O)[C@H]3O)O2)cc1I | EC50 | cytopathic effect | B2006 (TK-) | E6SM | 200 µg/mL
CC(=O)Nc1nc2c(CC(O)CO)ncn2c(=O)[nH]1 | EC50 | cytopathic effect | KOS | PRK | >200 µg/mL
O=c1[nH]c(=O)n([C@H]2C[C@H](O)[C@@H](CO)O2)cc1I | EC50 | cytopathic effect | F | PRK | 0.1 µg/mL
Nc1nc2c(ncn2C[C@]2(CO)C[C@H]2CO)c(=O)[nH]1 | EC50 | plaque count | Tomioka | BALB/3T3 | 0.0012 µg/mL
[N-]=[N+]=NC(CBr)c1cn(CCC(CO)CO)c(=O)[nH]c1=O | EC50 | cytopathic effect | E-377 (TK+) | HFF | >270 µM
Cc1c(NC(=O)C(C)C)ccc2nc(NC(C)(C)C(=O)N(C)CCc3ccccn3)oc(=O)c12 | EC90 | plaque count |  | VERO | 12.5 µM
NC(=S)c1cn(COCCO)c2ncnc(N)c12 | EC50 | plaque count | E-377 | HFF | 21 µM
CN(C)CCN1C(=O)c2cccc3cc(N)cc(c23)C1=O | EC50 | plaque count | HFEM | VERO | <4 µg/mL
Nc1nc2c(ncn2COC(CO)CO)c(=O)[nH]1 | EC50 |  |  |  | 1 µM

Blank or dashed fields: not listed here. Rows are shuffled and stem from different studies.